These are literature values, as cited in paper PMC8472716.

The data set addresses TLR4 (Homo sapiens) (UniProt O00206).

As a reminder, the Kd is the concentration at which binding is half-saturated. In the case of “SARS-CoV-2 spike trimer (from UniProt P0DTC2)”, the Kd was 300 nM.
